Target: SSL1 (Staphylococcus aureus superantigen-like protein SSL1), recombinant, homodimer (Staphylococcus aureus, UniProt A0A0H3KAV3)
Assay: inhibition of Chromozym PL hydrolysis, OD405
Conditions: substrate Chromozym PL, 37 °C

Amino acid sequences for entries named in this document (tags omitted). Residues count along the entry.
UniProt A0A0H3KAV3, 32-226 limits assumed: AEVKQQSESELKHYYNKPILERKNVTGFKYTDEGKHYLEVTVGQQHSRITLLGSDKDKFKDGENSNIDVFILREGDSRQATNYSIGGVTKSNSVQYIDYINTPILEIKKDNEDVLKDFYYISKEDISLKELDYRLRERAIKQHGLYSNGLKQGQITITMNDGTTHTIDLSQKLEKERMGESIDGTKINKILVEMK

| SMILES | % Activity of Control ^1 (1000 µM, inhibitor 1 mM) | % Activity of Control ^1 (10000 µM, inhibitor 10 mM) |
| --- | --- | --- |
| Cc1ccc(S(=O)(=O)N[C@@H](CCCCN)C(=O)CCl)cc1 | 0% | – |
| NCCc1ccc(S(=O)(=O)F)cc1 | – | 0% |
